Measured values from several laboratories, pooled; numbers as filed in NIAID ChemDB.

Common to all: whole-cell or culture tests; agent: Streptococcus pneumoniae

Neighbouring rows are from separate reports.

{"compound": "O=C(O)c1cn(C2CC2)c2cc(N3CCNCC3)ccc2c1=O", "read-out": "MIC", "strain": "R6", "result": "32 µg/mL"}
{"compound": "CO/N=C1\\CN(c2nc3c(cc2F)c(=O)c(C(=O)O)cn3C2CC2)CC1CN", "read-out": "MIC50", "strain": "94 isolates ciprofloxacin-susceptible", "result": "0.031 µg/mL"}
{"compound": "CC[C@H]1OC(=O)[C@H](C)C(=O)[C@H](C)[C@@H](O[C@@H]2O[C@H](C)C[C@H](N(C)C)[C@H]2O)[C@@]2(C)C[C@@H](C)C(=NC(C)=O)[C@H](C)C(OC/C(=C\\c3cnc4ccccc4c3)CO2)[C@]1(C)O", "read-out": "MIC", "strain": "7701 (erythromycin-resistant-MEF)", "result": "0.25 µg/mL"}
{"compound": "C=C1COC2[C@@H](C)C(=NC(C)=O)[C@H](C)C[C@@](C)(OC1)[C@H](O[C@@H]1O[C@H](C)C[C@H](N(C)C)[C@H]1O)[C@@H](C)C(=O)[C@@H](C)C(=O)O[C@H](CC)[C@@]2(C)O", "read-out": "MIC", "strain": "49619 (erythromycin-susceptible)", "result": "0.25 µg/mL"}
{"compound": "CC[C@H]1OC(=O)[C@@](C)(F)C(=O)[C@H](C)[C@@H](O[C@@H]2O[C@H](C)C[C@H](N(C)C)[C@H]2O)[C@@]2(C)C[C@@H](C)C(=NC(C)=O)[C@H](C)[C@@H](OC/C(=N\\OCc3ccc(-c4nccs4)nc3)CO2)[C@]1(C)O", "read-out": "MIC", "strain": "49619 (erythromycin A-susceptible)", "result": "<0.06 µg/mL"}
{"compound": "CC[C@H]1OC(=O)[C@H](C)C(=O)[C@H](C)[C@@H](O[C@@H]2O[C@H](C)C[C@H](N(C)C)[C@H]2O)[C@@]2(C)C[C@@H](C)C(=NC(C)=O)[C@H](C)C(OC/C(=C\\C=C\\c3cccnc3)CO2)[C@]1(C)O", "read-out": "MIC", "strain": "49619 (erythromycin-susceptible)", "result": "<0.06 µg/mL"}
{"compound": "C[C@H]1NCc2cc(-c3ccc4c(=O)c(C(=O)O)cn(C5CC5)c4c3OC(F)F)ccc21", "read-out": "MIC", "strain": "R6-G8", "result": "0.12 µg/mL"}
{"compound": "CC[C@H]1OC(=O)[C@H](C)C(=O)[C@H](C)[C@@H](O[C@@H]2O[C@H](C)C[C@H](N(C)C)[C@H]2O)[C@@]2(C)C[C@@H](C)C(=NC(C)=O)[C@H](C)[C@@H](OC/C(=N\\OCC#Cc3ncccn3)CO2)[C@]1(C)O", "read-out": "MIC", "strain": "49619 (erythromycin-susceptible)", "result": "<0.06 µg/mL"}
{"compound": "CC[C@H]1OC(=O)[C@@](C)(F)C(=O)[C@H](C)[C@@H](O[C@@H]2O[C@H](C)C[C@H](N(C)C)[C@H]2O)[C@@]2(C)C[C@@H](C)C(=NC(C)=O)[C@H](C)[C@@H](OC/C(=N\\OCc3cccc(C(N)=O)c3)CO2)[C@]1(C)O", "read-out": "MIC", "strain": "49619 (erythromycin A-susceptible)", "result": "<0.06 µg/mL"}
{"compound": "CC[C@H]1OC(=O)[C@H](C)C(=O)[C@H](C)[C@@H](O[C@@H]2O[C@H](C)C[C@H](N(C)C)[C@H]2O)[C@@]2(C)C[C@@H](C)C(=NC(C)=O)[C@H](C)[C@@H](OC/C(=N\\Oc3ccc(-n4cccn4)nc3)CO2)[C@]1(C)O", "read-out": "MIC", "strain": "7701 (erythromycin-resistant-MEF)", "result": "<0.06 µg/mL"}
{"compound": "CC[C@H]1OC(=O)[C@@](C)(F)C(=O)[C@H](C)[C@@H](O[C@@H]2O[C@H](C)C[C@H](N(C)C)[C@H]2O)[C@@]2(C)C[C@@H](C)C(=NC(C)=O)[C@H](C)[C@@H](OC/C(=N\\OCc3ccc(-n4cccn4)nc3)CO2)[C@]1(C)O", "read-out": "MIC", "strain": "700906 (erythromycin A-resistant)", "result": "<0.06 µg/mL"}
{"compound": "COc1c(N2CCNC(C)C2)c(F)cc2c(=O)c(C(=O)O)cn(C3CC3)c12", "read-out": "MIC", "strain": "R6-G8", "result": "0.5 µg/mL"}
{"compound": "CC[C@H]1OC(=O)[C@@](C)(F)C(=O)[C@H](C)[C@@H](O[C@@H]2O[C@H](C)C[C@H](N(C)C)[C@H]2O)[C@@]2(C)C[C@@H](C)C(=NC(C)=O)[C@H](C)[C@@H](OC/C(=N\\OCc3ccc(C(N)=O)s3)CO2)[C@]1(C)O", "read-out": "MIC", "strain": "49619 (erythromycin A-susceptible)", "result": "<0.06 µg/mL"}
{"compound": "CC[C@H]1OC(=O)[C@H](C)C(=O)[C@H](C)[C@@H](O[C@@H]2O[C@H](C)C[C@H](N(C)C)[C@H]2O)[C@@]2(C)C[C@@H](C)C(=NC(=O)CN)[C@H](C)C(OC/C(=C\\C=C\\c3ccccc3)CO2)[C@]1(C)O", "read-out": "MIC", "strain": "700906 (erythromycin-resistant-ERM)", "result": "16 µg/mL"}
{"compound": "CC[C@H]1OC(=O)[C@@](C)(F)C(=O)[C@H](C)[C@@H](O[C@@H]2O[C@H](C)C[C@H](N(C)C)[C@H]2O)[C@@]2(C)C[C@@H](C)C(=NC(C)=O)[C@H](C)[C@@H](OC/C(=N/OCc3ccc(-c4cccc(N)n4)s3)CO2)[C@]1(C)O", "read-out": "MIC", "strain": "700906 (erythromycin A-resistant)", "result": "0.25 µg/mL"}
{"compound": "COc1c(N2CCNC(C)C2)ccc2c(=O)c(C(=O)O)cn(C3CC3)c12", "read-out": "MIC", "strain": "D-1687", "result": "64 µg/mL"}
{"compound": "CC[C@H]1OC(=O)[C@@](C)(F)C(=O)[C@H](C)[C@@H](O[C@@H]2O[C@H](C)C[C@H](N(C)C)[C@H]2O)[C@@]2(C)C[C@@H](C)C(=O)[C@H](C)[C@@H](OC/C(=N\\OCc3ccc(-n4cccn4)nc3)CO2)[C@]1(C)O", "read-out": "MIC", "strain": "700906 (erythromycin A-resistant)", "result": "<0.06 µg/mL"}
{"compound": "COc1c(N2C[C@@H]3CCCN[C@@H]3C2)ccc2c(=O)c(C(=O)O)cn(C3CC3)c12", "read-out": "MIC", "strain": "R6-G8", "result": "1 µg/mL"}
{"compound": "CC[C@H]1OC(=O)[C@H](C)[C@@H](O[C@H]2C[C@@](C)(OC)[C@@H](O)[C@H](C)O2)[C@H](C)[C@@H](O[C@H]2O[C@@H](C)C[C@@H](N(C)C)[C@@H]2O)[C@](C)(O)C[C@@H](C)C(=O)[C@H](C)[C@@H](O)[C@]1(C)O", "read-out": "MIC", "strain": "49619 (erythromycin-susceptible)", "result": "<0.06 µg/mL"}
{"compound": "CC[C@H]1OC(=O)[C@H](C)[C@@H](O[C@H]2C[C@@](C)(OC)[C@@H](O)[C@H](C)O2)[C@H](C)[C@@H](O[C@H]2O[C@@H](C)C[C@@H](N(C)C)[C@@H]2O)[C@](C)(O)C[C@@H](C)C(=O)[C@H](C)[C@@H](O)[C@]1(C)O", "read-out": "MIC", "strain": "49619 (erythromycin A-susceptible)", "result": "<0.06 µg/mL"}
{"compound": "CC[C@H]1OC(=O)[C@H](C)C(=O)[C@H](C)[C@@H](O[C@@H]2O[C@H](C)C[C@H](N(C)C)[C@H]2O)[C@@]2(C)C[C@@H](C)C(=NC(C)=O)[C@H](C)[C@@H](OC/C(=N\\OCC#Cc3cncnc3)CO2)[C@]1(C)O", "read-out": "MIC", "strain": "700906 (erythromycin-resistant-ERM)", "result": "4 µg/mL"}
{"compound": "CC[C@H]1OC(=O)[C@@](C)(F)C(=O)[C@H](C)[C@@H](O[C@@H]2O[C@H](C)C[C@H](N(C)C)[C@H]2O)[C@@]2(C)C[C@@H](C)C(=NC(C)=O)[C@H](C)[C@@H](OC/C(=N\\OCc3ccc4cnn(C(N)=O)c4c3)CO2)[C@]1(C)O", "read-out": "MIC", "strain": "49619 (erythromycin A-susceptible)", "result": "<0.06 µg/mL"}
{"compound": "CC[C@H]1OC(=O)[C@H](C)C(=O)[C@H](C)[C@@H](O[C@@H]2O[C@H](C)C[C@H](N(C)C)[C@H]2O)[C@@]2(C)C[C@@H](C)C(=NC(C)=O)[C@H](C)C(OC/C(=C\\C#Cc3ccc(N)cc3)CO2)[C@]1(C)O", "read-out": "MIC", "strain": "700906 (erythromycin-resistant-ERM)", "result": "0.25 µg/mL"}
{"compound": "CC[C@H]1OC(=O)[C@H](C)C(=O)[C@H](C)[C@@H](O[C@@H]2O[C@H](C)C[C@H](N(C)C)[C@H]2O)[C@@]2(C)C[C@@H](C)C(=NC(C)=O)[C@H](C)[C@@H](OC/C(=N\\OCC#Cc3ccc(N)nc3)CO2)[C@]1(C)O", "read-out": "MIC", "strain": "49619 (erythromycin-susceptible)", "result": "<0.06 µg/mL"}

Repeating the final 2 entries:

{"compound": "CC[C@H]1OC(=O)[C@H](C)C(=O)[C@H](C)[C@@H](O[C@@H]2O[C@H](C)C[C@H](N(C)C)[C@H]2O)[C@@]2(C)C[C@@H](C)C(=NC(C)=O)[C@H](C)C(OC/C(=C\\C#Cc3ccc(N)cc3)CO2)[C@]1(C)O", "read-out": "MIC", "strain": "700906 (erythromycin-resistant-ERM)", "result": "0.25 µg/mL"}
{"compound": "CC[C@H]1OC(=O)[C@H](C)C(=O)[C@H](C)[C@@H](O[C@@H]2O[C@H](C)C[C@H](N(C)C)[C@H]2O)[C@@]2(C)C[C@@H](C)C(=NC(C)=O)[C@H](C)[C@@H](OC/C(=N\\OCC#Cc3ccc(N)nc3)CO2)[C@]1(C)O", "read-out": "MIC", "strain": "49619 (erythromycin-susceptible)", "result": "<0.06 µg/mL"}

A number after MIC or MFC names an inhibition level or a share of isolates.